PubChem BioAssay AID504761 | Drosophila RNAi Screening Center – 2011

- Screen: 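Insect host genes that dengue virus relies on to spread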 (primary screen)
- Cells: D.Mel-2 cells from Drosophila
- Reagents: long dsRNA against Drosophila genes
- Challenge: infection with dengue virus type 2; dose and infection time not stated
- Detection: 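Per well on two replicate plates, imaging gave the percent of cells positive for viral envelope protein, ranked by infection, and a nuclear count of cells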
- Direction: infection score: higher = more virus-infected cells; cell count: higher = more cells in the well
- Call rule: 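Very low infection ranking in both replicate wells (chance probability at most 0.065), then a retest showing infection dropped 1.5-fold or more at p below 0.05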
- Calls: active = confirmed: knock-down lowers infection; inactive = not picked or not confirmed
In all, the deposit lists about 22,000 reagents; below is an unselected part of those with a known target gene and a result. In the full data, 116 (0.52%) were called active. 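Calls depend on retest data that are not deposited; infection was ranked per plate without normalising between plates; the unit of the infection score is not given.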 The raw values are shown without normalisation. Unmarked entries are inactive. Reagents against one gene are numbered here. A plus sign joins genes that one reagent is predicted to hit. Not stated in the record: the amount of reagent, the time to read-out.

| gene | reagent no. | infection score, replicate 1 | infection score, replicate 2 | cell count, replicate 1 | cell count, replicate 2 |
| --- | --- | --- | --- | --- | --- |
| Ser6 | 1 | 11.6 | 3.44 | 6245 | 5267 |
| Ser6 | 2 | 33.6 | 2.93 | 5036 | 6690 |
| ix | 1 | 5.06 | 25.6 | 6010 | 5592 |
| ix | 2 | 4.83 | 1.52 | 6496 | 4859 |
| hbs | 1 | 17.5 | 14.2 | 6274 | 5953 |
| Cubn2 | 1 | 1.8 | 6.6 | 6445 | 5712 |
| Cubn2 | 2 | 1 | 0.64 | 6785 | 6448 |
| CR13656 | 1 | 0.03 | 0.08 | 6068 | 6266 |
| CR13656 | 2 | 1.67 | 6.65 | 6299 | 6360 |
| Obp83a | 1 | 3.91 | 4.89 | 6668 | 6607 |
| CG13791 (retired record) | 1 | 4.41 | 18 | 6211 | 6156 |
| Hesr | 1 | 3.95 | 9.72 | 6632 | 6798 |
| Dhdds | 1 | 4.26 | 0.75 | 6360 | 6422 |
| Dhdds | 2 | 7.54 | 12.5 | 5558 | 6174 |
| CG13813 | 1 | 2.43 | 0.99 | 7043 | 6737 |
| Hsp83 | 1 | 1.12 | 3.34 | 5379 | 5215 |
| Hsp83 | 2 | 5.98 | 6.66 | 5550 | 4627 |
| Blimp-1 | 1 | 3.06 | 3.82 | 5558 | 5547 |
| Blimp-1 | 2 | 0.86 | 0.53 | 6165 | 6228 |
| 2mit | 1 | 1.47 | 9.44 | 6989 | 6642 |
| 2mit | 2 | 3.74 | 14.6 | 6741 | 6839 |
| CG6106 | 1 | 37.6 | 7.45 | 5685 | 5569 |
| CG6106 | 2 | 7.92 | 12.8 | 2688 | 6505 |
| Est-Q | 1 | 5.43 | 13.3 | 6430 | 6444 |
| in | 1 | 1.4 | 3.79 | 5851 | 5778 |
| CG1722 | 1 | 2.17 | 0.35 | 6224 | 6588 |
| CG12024 | 1 | 15.7 | 12.9 | 6510 | 6227 |
| CG12024 | 2 | 23.2 | 4.84 | 5493 | 6030 |
| CG9289 | 1 | 5.28 | 2.69 | 6212 | 7174 |
| CG9289 | 2 | 16.5 | 23.6 | 5167 | 5980 |
| CG1889 | 1 | 3.48 | 3.98 | 6618 | 6556 |
| CG1889 | 2 | 25.8 | 6.3 | 6180 | 6399 |
| CG9877 | 1 | 9.06 | 9.01 | 6184 | 6370 |
| CG9877 | 2 | 25.3 | 18.7 | 4570 | 4921 |
| CG42237 | 1 | 3.38 | 2.6 | 6240 | 6273 |
| CG5790 | 1 | 4.76 | 24.9 | 6133 | 5830 |
| CG5790 | 2 | 16.3 | 8.28 | 5809 | 6050 |
| COX5BL | 1 | 6.64 | 5.09 | 6218 | 6714 |
| COX5BL | 2 | 14.2 | 2.8 | 6083 | 6213 |
| CG13607 | 1 | 6.61 | 3.91 | 6338 | 6195 |
| Orc4 | 1 | 11.9 | 37.4 | 6671 | 4504 |
| Orc4 | 2 | – | – | 346 | 250 |
| Cpr66D | 1 | 0.86 | 11.9 | 5693 | 6149 |
| Cpr66D | 2 | 2.45 | 8.93 | 6082 | 6068 |
| Trpgamma | 1 | 18.8 | 3.31 | 5145 | 6013 |
| Osi13 | 1 | 2.43 | 2.84 | 6659 | 6904 |
| Rm62 | 1 | 10.8 | – | 1607 | 292 |
| Rm62 | 2 | 5.55 | 17.4 | 5825 | 3603 |
| Galk | 1 | 7.47 | 9.04 | 4981 | 3397 |
| Galk | 2 | 10.5 | 6.49 | 6432 | 6437 |
| Drs | 1 | 1.74 | 5.86 | 5575 | 5824 |
| Drs | 2 | 3.98 | 34.7 | 5751 | 4939 |
| CG42812 + CG42811 | 1 | 4.26 | 0.63 | 6146 | 6383 |
| CG42812 + CG42811 | 2 | 2.44 | 12.6 | 6555 | 6555 |
| inaC | 1 | 8.32 | 2.84 | 6706 | 6785 |
| ND-51L1 | 1 | 3.34 | 10.7 | 6674 | 6480 |
| CG15873 | 1 | 6.52 | 7.95 | 6490 | 6818 |
| CG32115 | 1 | 3.91 | 4.59 | 6472 | 6149 |
| CG10184 | 1 | 8.62 | 9.47 | 6893 | 6844 |
| VhaSFD | 1 | 9.3 | 1.69 | 5171 | 5387 |
| Jhbp15 | 1 | 3.38 | 5.36 | 6422 | 6311 |
| Gyf | 1 | 12 | 2.66 | 5698 | 6123 |
| Gyf | 2 | 4.79 | – | 1940 | 431 |
| Mesh1 | 1 | 5.33 | – | 6561 | 357 |
| Cyt-b5 | 1 | 15.4 | 11.4 | 6431 | 1330 |
| CG11865 | 1 | 8.91 | 4.64 | 3502 | 6531 |
| CG11865 | 2 | 12.4 | 14.3 | 6761 | 5242 |
| kar | 1 | 3.33 | 14.4 | 1051 | 2844 |
| RabGGTa | 1 | 6.68 | 16.3 | 6574 | 6170 |
| CG13386 | 1 | 3.25 | 3.66 | 6086 | 6610 |
| CG13386 | 2 | 11.3 | – | 3441 | 357 |
| sala | 1 | 10.4 | 7.46 | 5742 | 5747 |
| sala | 2 | 7.45 | 8.58 | 1974 | 1713 |
| mst | 1 | 0.71 | 0.62 | 7090 | 6248 |

Quoted from the listing, 7 entries:
| gene | reagent no. | infection score, replicate 1 | infection score, replicate 2 | cell count, replicate 1 | cell count, replicate 2 |
| --- | --- | --- | --- | --- | --- |
| Orc4 | 1 | 11.9 | 37.4 | 6671 | 4504 |
| Orc4 | 2 | – | – | 346 | 250 |
| Cpr66D | 1 | 0.86 | 11.9 | 5693 | 6149 |
| Cpr66D | 2 | 2.45 | 8.93 | 6082 | 6068 |
| Trpgamma | 1 | 18.8 | 3.31 | 5145 | 6013 |
| Osi13 | 1 | 2.43 | 2.84 | 6659 | 6904 |
| Rm62 | 1 | 10.8 | – | 1607 | 292 |
